A mixed list of measured activities; the numbers were collected in NIAID ChemDB.

Common to all: tests in culture; species: Mycobacterium tuberculosis

ECn: concentration that inhibits the pathogen or its effect by n%. A number after MIC or MFC names an inhibition level or a share of isolates. MIC bound comes from a single tested concentration. Rows are shuffled and stem from different studies. Inhibition is in % at the dose shown (toxicity tests: loss of growth or viability). An empty or dashed field is not shown. a–b is a range or a potency band.

structure	measure	cell line	dose	method	changes	strain	value
O=C(CCC(F)(F)F)N1CC(c2ccc(C(F)(F)F)cc2)C1	EC50	THP-1		fluorescence		H37Rv	0.25–0.5 µM
O=C(c1ccc(-c2ccccc2)cc1)C(Cl)Cl	MIC					H37Rv	3.125 µg/mL
Cc1c(F)c(N2CCNC(C)C2)cc2c1c(=O)c(C(=O)O)cn2C1CC1	MIC90					37 strains (drug-resistant)	4 µg/mL
Cc1ccc(C2=NN(C(=O)c3ccncc3)C(O)(C(F)(F)F)C2)cc1	MIC					RGH104	4.47 µM
COCCN(C1CCN(CC2C(c3ccccc3)=Nc3c(OC)cccc32)C1)S(C)(=O)=O	MIC						6.25 µM
CC12CCC3C(CCC4(O)C=CCCC34C=O)C1(O)CC(O)C2c1ccc(=O)oc1	MIC bound			BACTEC		H37Rv	>12.5 µg/mL
COCCN(C1CCN(Cc2c(-c3ccccc3)[nH]c3c(C)cccc23)C1)S(C)(=O)=O	MIC						1.1 µM
O=C(/C=C/c1ccccc1)c1cccc(I)c1O	inhibition		12.5 µg/mL			H37Rv	0%
O=C(CCC(F)(F)F)N1CC(c2ccc(C(F)(F)F)cn2)C1	EC50	THP-1		fluorescence		H37Rv	1–10 µM
O=C(CCl)c1ccc(Cc2ccccc2)cc1	MIC					H37Rv	25 µg/mL
CC(C)(C)OC(=O)CSc1nc(N)c2c3c(sc2n1)CC(C(C)(C)C)CC3	MIC			MTT / visual reading		H37Rv	>200 µg/mL
Cc1cccc(C(N)=Nc2nc(-c3ccccn3)cc3ccccc23)c1	MIC					J-3125	0.25 µg/mL
CCOc1cc(O)c(C(=O)/C=C/c2cc(OC)c(OC)c(OC)c2)c(O)c1	MIC					H37Rv	>12.5 µg/mL
NNC(=O)c1ccncc1	MIC80			broth dilution		ATCC 27294	0.2 µM
O=C(/C=C/c1ccc([N+](=O)[O-])o1)N1CCN(Cc2ccccc2)CC1	MIC bound			BACTEC		H37Rv	≤12.5 µg/mL
Cn1c(-c2ccc(Br)cc2)cs/c1=N\N=C1/C(=O)Nc2ccccc21.O	inhibition		12 µg/mL			H37Rv	14%
C[C@H]1COC2(CCN(c3nc(=O)c4cc(C(F)(F)F)cc([N+](=O)[O-])c4s3)CC2)O1	MIC					InhA OE	0.003–0.006 µM
O=C(c1ccc(CCc2ccccc2)cc1)C(Br)Br	MIC					H37Rv	12.5 µg/mL
O=C(/C=C/c1cc2ccccc2[nH]1)c1ccncc1	MIC					H37Rv	>12.5 µg/mL
C/C=C/c1ccc2oc(-c3ccc(O)c(OC)c3)c(C)c2c1	MIC			resazurin / absorbance		Clinical isolate 49	3.9 µg/mL
O=C(CCC(F)(F)F)N1CC(c2ccc(OC(F)(F)F)cc2)C1	EC50	THP-1		fluorescence		H37Rv	0.25–0.5 µM
COc1ccc(-c2oc3ccc(Br)cc3c(=O)c2O)cc1	MIC					H37Rv	>12.5 µg/mL
O=C(c1ccc(Oc2ccc(Cl)cc2)cc1)C(Cl)Cl	MIC					H37Rv	12.5 µg/mL
CN(C)C/C=C(\c1ccc(I)cc1)c1ccc(-c2ccc(Br)cc2)cc1	MIC					ALI 282	≤4 µg/mL
O=C(c1ccncc1)N1N=C(c2cccs2)CC1(O)C(Cl)(Cl)Cl	MIC					RGH102	>257 µM
Cc1ccc(N2C(=O)C(C)S/C2=N/N=C2\C(=O)Nc3ccc(Br)cc32)cc1	MIC					H37Rv	>12.5 µg/mL
Cc1ccc(C2=NN(C(=O)c3ccncc3)C(O)(C(Cl)(Cl)Cl)C2)cc1	MIC					H37Rv	>252 µM
O=C(c1ccc(-c2ccccc2)cc1)C(Br)Br	MIC					H37Rv	12.5 µg/mL
O=c1cc(-c2ccccc2)oc2cc(F)ccc12	inhibition		12.5 µg/mL			H37Rv	7%
CCCc1ccc2oc(-c3ccc(O)c(OC)c3)c(C)c2c1	MIC			resazurin / absorbance		Clinical isolate 57	7.8 µg/mL
O=S(=O)(NC1CCN(Cc2cccnc2)CC1)c1ccc(-n2cccn2)cc1	MIC						100 µM
CC(=O)OC1C2=C(C)C(=O)OC2=CC2=CCCC(C)C21C	MIC			BACTEC		H37Rv	≥12.5 µg/mL
CN[C@@H]1[C@H](O[C@H]2[C@H](O[C@H]3[C@H](O)[C@@H](O)[C@H](N=C(N)N)[C@@H](O)[C@@H]3N=C(N)N)O[C@@H](C)[C@]2(O)C=O)O[C@@H](CO)[C@H](O)[C@H]1O	MIC80			broth dilution	Ofloxacin-resistant	12119	0.3 µM
CO[C@@]12[C@H](COC(N)=O)C3=C(C(=O)C(C)=C(N)C3=O)N1C[C@H]1[C@@H]2N1C	MIC					ETA-R	1.6 µg/mL
O=C(CCC(F)(F)F)N1CC(c2ccc(F)cn2)C1	EC50	THP-1		fluorescence		H37Rv	0.05–0.25 µM
Cc1ccc(S(=O)(=O)NC(=O)N(C)NC(=O)C(=O)NCc2ccco2)cc1	MIC bound			BACTEC		H37Rv	>12.5 µg/mL
O=C(c1ccncc1)N1N=C(c2ccco2)CC1(O)C(Cl)(Cl)Cl	MIC					RGH104	>268 µM
Cc1cccc(C)c1NCC(=O)NN	inhibition		12.5 µg/mL	BACTEC		H37Rv	15%
CCC(=O)CSc1nc(N)c2c3c(sc2n1)CC(C(C)(C)C)CC3	MIC			MTT / visual reading		H37Rv	>200 µg/mL
COC1=C2CC(C)CC(OC)C(O)C(C)/C=C(\C)C(OC(N)=O)C(OC)/C=C\C=C(/C)C(=O)NC(=C(C=NN3CCOCC3)C1=O)C2=O	MIC			BACTEC		H37Rv	≥12.5 µg/mL
CO[C@H]1/C=C/O[C@@]2(C)Oc3c(C)c(O)c4c(O)c(cc(OCC(=O)NC(C)O)c4c3C2=O)NC(=O)/C(C)=C\C=C\[C@H](C)[C@H](O)[C@@H](C)[C@@H](O)[C@@H](C)[C@H](OC(C)=O)[C@@H]1C	MIC					H37Rv	0.09 µg/mL
C=CC12CN(C)C3C4COC(CC41)C1(C(=O)Nc4ccccc41)C32.CC(C)=O	inhibition		12.5 µg/mL	BACTEC		H37Rv	-9%
N[C@H]1CCN(c2nc3c(cc2F)c(=O)c(C(=O)O)cn3C2CC2)C1	MIC					H37Rv	0.01 µg/mL
CO[C@H]1/C=C/O[C@@]2(C)Oc3c(C)c(O)c4c(O)c(cc(OCC(=O)N(C)CCO)c4c3C2=O)NC(=O)/C(C)=C\C=C\[C@H](C)[C@H](O)[C@@H](C)[C@@H](O)[C@@H](C)[C@H](OC(C)=O)[C@@H]1C	MIC					H37Rv	0.15 µg/mL
CCCCN=C(N=Nc1c(O)[nH]c2ccc(Br)cc12)SCC(=O)c1ccc(Br)cc1	inhibition		12 µg/mL			H37Rv	99%
CCN(CC)CCNc1ccc(C)c2sc3c(OC)cccc3c(=O)c12	inhibition		12.5 µg/mL	BACTEC		H37Rv	97%
CCCN(CCC)C(=O)COc1cc2c(O)c3c(O)c(C)c4c(c13)C(=O)[C@@](C)(O/C=C/[C@H](OC)[C@@H](C)[C@@H](OC(C)=O)[C@H](C)[C@H](O)[C@H](C)[C@@H](O)[C@@H](C)/C=C/C=C(/C)C(=O)N2)O4	MIC					H37Rv	0.18 µg/mL
C=C1CCC2C(C)(CO)C(O)CCC2(C)C1CCC1=CCOC1=O	inhibition		12.5 µg/mL	BACTEC		H37Rv	21%
CC1COc2c(N3CCN(C)CC3)c(F)cc3c(=O)c(C(=O)O)cn1c23	MIC80			broth dilution	Bedaquiline-resistant I66M		0.7 µM
O=C(c1ccc(Cc2ccc(C(=O)C(Br)Br)cc2)cc1)C(Br)Br	MIC					H37Rv	6.25 µg/mL
CO[C@H]1/C=C/O[C@@]2(C)Oc3c(C)c(O)c4c(=O)c(c5oc6cc(N7CCN(CC(C)C)CC7)cc(=O)c6nc5c4c3=C2O)NC(=O)/C(C)=C\C=C\[C@H](C)[C@H](O)[C@@H](C)[C@@H](O)[C@@H](C)[C@H](OC(C)=O)[C@@H]1C	MBC					2242 (rifampicin-susceptible)	0.03 µg/mL
CCc1cc(C(=O)NN)c2ccccc2n1	MIC bound			BACTEC		H37Rv	>12.5 µg/mL
NNC(=O)c1ccncc1	MIC			resazurin / absorbance	inhA mutant isoniazid resistant	HUG.MB.6726	2.2 µg/mL
COC1=CC2(C=CC1=O)CCC(=O)O2	MIC bound			BACTEC		H37Rv	>12.5 µg/mL
CO[C@H]1/C=C/O[C@@]2(C)Oc3c(C)c(O)c4c(O)c(cc(OCC(=O)N(C)N5CCCCC5)c4c3C2=O)NC(=O)/C(C)=C\C=C\[C@H](C)[C@H](O)[C@@H](C)[C@@H](O)[C@@H](C)[C@H](OC(C)=O)[C@@H]1C	MIC					H37Rv	0.09 µg/mL
CN(C)C/C=C(\c1ccc(O)cc1)c1ccc(-c2ccccc2)cc1	MIC					ALI 3415	49 µg/mL
O=C1c2c(O)ccc(O)c2C(=O)c2c(NCCCO)ccc(NCCCO)c21	MIC bound			BACTEC		H37Rv	>12.5 µg/mL
CO[C@H]1/C=C/O[C@@]2(C)Oc3c(C)c(O)c4c(O)c(cc(OCC(=O)N(C)N5CCOCC5)c4c3C2=O)NC(=O)/C(C)=C\C=C\[C@H](C)[C@H](O)[C@@H](C)[C@@H](O)[C@@H](C)[C@H](OC(C)=O)[C@@H]1C	MIC					H37Rv	0.18 µg/mL
CO[C@H]1/C=C/O[C@@]2(C)Oc3c(C)c(O)c4c(O)c(c(/C=N/N5CCN(C)CC5)c(O)c4c3C2=O)NC(=O)/C(C)=C\C=C\[C@H](C)[C@H](O)[C@@H](C)[C@@H](O)[C@@H](C)[C@H](OC(C)=O)[C@@H]1C	MIC					H37Rv	0.16 µg/mL
NC(=O)c1ccc(N=Nc2c(O)c3ccccc3[nH]c2=O)cc1	MIC			BACTEC		H37Rv	≥12.5 µg/mL
CN(C)C/C=C(/c1ccc(-c2ccc(Br)cc2)cc1)c1ccc([N+](=O)[O-])cc1	MIC					ALI 282	18.5 µg/mL
CCCCOC(=O)CSc1nc(N)c2c3c(sc2n1)CC(C(C)(C)C)CC3	MIC			MTT / visual reading		H37Rv	1.5 µg/mL
CO[C@H]1/C=C/O[C@@]2(C)Oc3c(C)c(O)c4c(O)c(c(/C=N/N5CCN(C)CC5)c(O)c4c3C2=O)NC(=O)/C(C)=C\C=C\[C@H](C)[C@H](O)[C@@H](C)[C@@H](O)[C@@H](C)[C@H](OC(C)=O)[C@@H]1C	MIC			BACTEC		HN878	0.031 µg/mL
COC1=CC(=O)C(CC=C(C)C)=CC1=O	MIC			BACTEC		H37Rv	128 µg/mL
CC1S/C(=N/N=C2\C(=O)Nc3ccccc32)N(C2CCCCC2)C1=O	MIC					H37Rv	>12.5 µg/mL
CC(C)(C)OC(=O)n1ccc(CSc2nc(N)c3c4c(sc3n2)CC(C(C)(C)C)CC4)n1	MIC			MTT / visual reading		H37Rv	>200 µg/mL
O=C(CC(=O)N1N=C(N(c2ccccc2)c2ccccc2)CC1c1ccccc1)Nc1ccccc1	inhibition		6.25 µg/mL	resazurin		H37Rv	35%
CCCN(CC)C(=O)COc1cc2c(O)c3c(O)c(C)c4c(c13)C(=O)[C@@](C)(O/C=C/[C@H](OC)[C@@H](C)[C@@H](OC(C)=O)[C@H](C)[C@H](O)[C@H](C)[C@@H](O)[C@@H](C)/C=C/C=C(/C)C(=O)N2)O4	MIC					H37Rv	0.09 µg/mL
Cl.Cn1c(COc2ccc(/C=N/N=C(\N)N/N=C/c3ccc(OCc4c[n+]5ccccc5n4C)cc3)cc2)c[n+]2ccccc12.[Cl-].[Cl-]	MIC bound			BACTEC		H37Rv	>12.5 µg/mL
CN(C)C/C=C(/c1ccc(Br)cc1)c1ccc(-c2ccc(Br)cc2)cc1	MIC					ALI 544	34 µg/mL
CCC(C)OC(=O)CSc1nc(N)c2c3c(sc2n1)CC(C(C)(C)C)CC3	MIC			MTT / visual reading		H37Rv	1.5 µg/mL
Clc1ccccc1C(Cc1c(Cl)cccc1Cl)Cn1ccnc1	inhibition		6.25 µg/mL	resazurin		H37Rv	94%
C[C@H]1COc2c(N3CCN(C)CC3)c(F)cc3c(=O)c(C(=O)O)cn1c23	MIC90					82 strains	1 µg/mL
CC12CCC(NC(=O)C3CCCN3C(=O)OCc3ccccc3)CC1CCC1C2CCC2(C)C(NC(=O)C3CCCN3C(=O)OCc3ccccc3)CCC12	inhibition		12.5 µg/mL	BACTEC		H37Rv	-2%
CN(C)C/C=C(/c1ccccc1)c1ccc(-c2ccc(Br)cc2)cc1	MIC					ALI 3415	40 µg/mL
CSC(=S)N/N=C(/C)c1ccco1	MIC			BACTEC		H37Rv	3.2 µg/mL
NNC(=O)c1ccncc1	MIC			resazurin / absorbance		Clinical isolate 13 638	0.03 µg/mL

8 of the rows above, restated:

structure	measure	cell line	dose	method	changes	strain	value
CN(C)C/C=C(/c1ccc(-c2ccc(Br)cc2)cc1)c1ccc([N+](=O)[O-])cc1	MIC					ALI 282	18.5 µg/mL
CC12CCC3C(CCC4(O)C=CCCC34C=O)C1(O)CC(O)C2c1ccc(=O)oc1	MIC bound			BACTEC		H37Rv	>12.5 µg/mL
O=C(CCC(F)(F)F)N1CC(c2ccc(F)cn2)C1	EC50	THP-1		fluorescence		H37Rv	0.05–0.25 µM
CSC(=S)N/N=C(/C)c1ccco1	MIC			BACTEC		H37Rv	3.2 µg/mL
NNC(=O)c1ccncc1	MIC80			broth dilution		ATCC 27294	0.2 µM
COc1ccc(-c2oc3ccc(Br)cc3c(=O)c2O)cc1	MIC					H37Rv	>12.5 µg/mL
Cc1ccc(C2=NN(C(=O)c3ccncc3)C(O)(C(Cl)(Cl)Cl)C2)cc1	MIC					H37Rv	>252 µM
CCc1cc(C(=O)NN)c2ccccc2n1	MIC bound			BACTEC		H37Rv	>12.5 µg/mL